Compound potency records, mixed from different reports. Data source: NIAID ChemDB in PubChem.

All rows: whole-cell or culture tests; organism: HIV-1; cells: TZM-bl; endpoint: EC50

An empty or dashed field is not shown. ECn is the concentration giving n% inhibition of infection, replication or growth. Rows are shuffled and stem from different studies.

compound | strain | changes | method | setting | value
Oc1cccc2ccc(/C=N/Nc3ccc(Br)cc3)nc12 | VB59 |  | luciferase |  | >150 µM
O=C(Nc1ccc(Cl)cc1)C(=O)NC1CCN(Cc2ccccc2)C2(CCCCC2)C1 | YTA |  | single cycle |  | >30 µM
c1ccc2c(NC3CCNCC3)nc(NCc3ccc(CNCCCNC4CCCC4)cc3)nc2c1 | IIIB |  | luciferase |  | 0.0489 µM
Cc1cc(/C=C/C#N)cc(C)c1Oc1ccc(N)c(Nc2ccc(C#N)cc2)n1 | NL4-3 |  | luciferase |  | 0.00071 µM
COC(=O)c1cc(N)c(Nc2ccc(C#N)cc2)cc1Oc1c(C)cc(CCC#N)cc1C | NL4-3 |  | luciferase |  | 4.32 µM
CCC(=O)c1ccc(F)c([C@@H]2C[C@@H]2NC(=O)Nc2ccc(C#N)cn2)c1O | LAI | NNRTI-resistant (RT L100I) | β-galactosidase / luminescence |  | 0.00503 µM
Cc1[nH]c2ccc(-c3nnc(SCC(=O)N4CCCC4)o3)cc2c1C | NL4-3 |  | β-galactosidase / luminescence |  | 0.205 µM
CC(=O)Oc1ccc(CCC(=O)CCc2ccc(NC(=O)C3CCCCC3)cc2)cc1OC(C)=O | BaL |  | luciferase |  | 18.77 µM
CC(C)C[C@H](NC(=O)CCCCCCCNC(=O)[C@]12CCC(C)(C)C[C@H]1C1=CC[C@@H]3[C@@]4(C)CC[C@H](O)C(C)(C)[C@@H]4CC[C@@]3(C)[C@]1(C)CC2)[C@@H](O)CC(=O)O | NL4-3 |  | luciferase / entry |  | 40 µM
CCCCCCCCCCCCCCCCCC1O[C@@H](CO)[C@H](O)[C@H](O)[C@@H]1O | 89.6 |  | luciferase |  | 9.72 µM
COC(=O)c1cc(O)c(O)c(O)c1 |  |  | luciferase | pseudotyped | 11.9 µM
CC(C)c1c(Cc2ccccc2)n(COCc2ccccc2)c(=O)[nH]c1=O | SF33 |  | p24 / ELISA |  | 0.022 µM
Oc1cccc2ccc(/C=N/Nc3ccccc3F)nc12 | VB59 |  | luciferase |  | 11.34 µM
COc1ccc(N2CCN(NC(=O)c3ccc(C(F)(F)F)nc3Nc3cc(Cl)ccc3C)CC2)cc1 | IIIB |  | luciferase |  | >10 µM
Cc1cccc(N/N=C/c2ccc3cccc(O)c3n2)c1C | VB59 |  | luciferase |  | 14.9 µM
C[C@H]1CO[C@@H]2Cn3cc(C(=O)NCc4ccc(F)cc4F)c(=O)c(O)c3C(=O)N12 | NL4-3 |  | single cycle |  | 0.00056 µM
C#C[C@@]1(COP(=O)(O)OP(=O)(O)OP(=O)(O)O)C=C[C@H](n2cc(C)c(=O)[nH]c2=O)O1 | NL4-3 | M184V | luciferase |  | 1.7 µM
O=C(O)/C=C/c1ccc2c(c1)c(=O)c(/C(O)=C/C(=O)C(=O)O)cn2Cc1ccc(F)cc1 | NL4-3 |  | p24 |  | 5 µM
NC(N)=NCCCCC(=O)NCCN1CCC(NC(=O)C(=O)Nc2ccc(Cl)cc2)CC12CCCCC2 | YTA |  | single cycle |  | 2.8 µM
c1ccc2c(NC3CCNCC3)nc(NCc3ccc(CNCCCN4CCCCC4)cc3)nc2c1 | IIIB |  | luciferase |  | 0.0715 µM
CC(=O)Oc1ccc(/C=C/C(=O)CCc2ccc(NC(=O)c3ccccc3)cc2)cc1OC(C)=O | BaL |  | luciferase |  | >50 µM
CCN(CC)C(=O)Oc1ccc2cccnc2c1-c1cccc2cccnc12 | HXB2 |  | luciferase | pseudotyped | 0.9 µM
Cc1ccnc(C)c1C(=O)N1CCC(C)(N2CCN([C@@H](C)c3ccc(C(F)(F)F)cc3)[C@@H](C)C2)CC1 | JR-FL |  |  |  | 0.39 µM
Cc1nnc(-c2cccc(-c3cccc(C(=O)N4CCCCC4)c3)c2)o1 | CE1176 |  | luminescence | pseudotyped | >30 µM
Cc1cc(/C=C/C#N)cc(C)c1Nc1ccnc(Nc2ccc(C#N)cc2)n1 | BaL | Y181C | luciferase |  | 0.0025 µM
COC(=O)CCCn1cc(-c2cccc(C(=O)N[C@@H](Cc3ccccc3)C(=O)N(C)c3ccc(OC)cc3)c2)nn1 | NL4-3 |  | MTT |  | >35.99 µM
COc1cc2c(c3oc4cc(Br)ccc4c(=O)c13)[C@@H](OC(=O)C13CCC(C)(C(=O)O1)C3(C)C)[C@@H](OC(=O)C13CCC(C)(C(=O)O1)C3(C)C)C(C)(C)O2 | NL4-3 |  | luciferase |  | >4 µM
Cc1ccc(-c2cc(-c3ccccc3)n(-c3ccc(Br)cc3)n2)c(=O)[nH]1 | VB59 |  | luminescence |  | 179 µM
COc1ccnc2[nH]cc(C(=O)C(=O)N3C4CCC3CN(C(=O)c3ccccc3)C4)c12 | ZM214 |  | luciferase |  | 1.1 µM
C=C1CC[C@@H]2C(C)(CO)[C@@H](O)CC[C@@]2(C)[C@@H]1C/C=C1/C(=O)OC[C@@H]1O |  |  | MTT / ELISA |  | 2.75 µM
C[C@@H]1CCO[C@H]2Cn3cc(C(=O)NCc4ccc(F)cc4F)c(=O)c(O)c3C(=O)N12 |  | I60M | luciferase / luminescence |  | 0.0024 µM
COc1cc2c3c(cc4ccccc4c3c1OC)N(CCN1CCCCC1)C2=O | NL4-3 |  | luciferase |  | 1.06 µM
Cc1cn([C@H]2C[C@H](N=[N+]=[N-])[C@@H](CO)O2)c(=O)[nH]c1=O | VB59 |  | luminescence |  | 0.02 µg/mL
CCN(CC)CCN1C(=O)c2cc(OC)c(OC)c3c2c1cc1ccccc13 | NL4-3 |  | luciferase / entry |  | 3.07 µM
O=C(Nc1ccc(Cl)cc1)C(=O)NC1CCNC2(CCCCC2)C1 | YTA |  | single cycle |  | 14 µM
Oc1cccc2ccc(/C=N/Nc3ccc(C(F)(F)F)cc3)nc12 | VB59 |  | luciferase |  | >150 µM
Cc1nnc(C(=O)NC(C)(C)c2nc(C(=O)NCc3ccc(F)cc3)c(O)c(=O)n2C)o1 | NL4-3 |  | luciferase |  | 0.00775 µM
COc1ccnc2[nH]cc(C(=O)C(=O)N3CCN(C(=O)c4ccccc4)C[C@H]3C)c12 | ZM214 |  | luciferase |  | 0.005 µM
COc1cc2cc3c4c(cc(OC)c(OC)c4c2cc1OC)C(=O)N3CCN1CCCCC1 | NL4-3 |  | luciferase |  | 1.03 µM
Oc1cc(/C=C/c2cc(O)c(O)c(O)c2)cc(O)c1O | NL4-3 |  | luciferase |  | 0.29 µM
O=Cc1ccc2cccc(O)c2n1 | VB59 |  | luciferase |  | 12.3 µM
NC(N)=NCCN1CCC(NC(=O)C(=O)Nc2ccc(Cl)cc2)CC12CCCCC2 | YTA |  | single cycle |  | 6.8 µM
CN(C)CCCNCc1ccc(CNc2nc(NC3CCNCC3)c3ccccc3n2)cc1 | IIIB |  | luciferase |  | >0.5 µM
C[C@H](Cn1cnc2c(N)ncnc21)OCP(=O)(O)O | NLAD8 |  | luciferase |  | 0.007 µM
C[C@@H]1CCO[C@H]2Cn3cc(C(=O)NCc4ccc(F)cc4F)c(=O)c(O)c3C(=O)N12 | NL4-3 | M184V-R263K | luciferase |  | 0.0044 µM
CC1OC(=O)c2ccccc2C1(Cl)c1ccccc1 | IIIB |  | luciferase |  | 29.33 µM
CCc1ccccc1N/N=C/c1ccc2cccc(O)c2n1 | VB59 |  | luciferase |  | 8.86 µM
Cc1ccnc2c1NC(=O)c1cccnc1N2C1CC1 | SF33 |  | p24 / ELISA |  | 0.634 µM
COc1cc(C[C@@H]2C(=O)N[C@@H](C(C)C)C(=O)O[C@H](c3ccccc3)[C@H](C)/C=C/C=C(\C)C(OC)CCC/C=C(\C)C(=O)C(C)C(=O)N2C)ccc1O | LAI |  |  |  | 0.015 µM
Cc1cn(C2CC(n3nnc(C4(C(F)(F)F)OC(=O)Nc5ccc(Cl)cc54)c3C3CC3)C(CO)O2)c(=O)[nH]c1=O | VB59 |  | luminescence |  | 1.43 µg/mL
Cc1ccnc2c1NC(=O)c1cccnc1N2C1CC1 | NL4-3 |  | luciferase / luminescence |  | 0.06129 µM
COc1ccc(/C=C/c2cc(Cl)c3cc(Cl)ccc3n2)c(OC)c1 | VB59 |  | luminescence |  | 0.53 µM
Cc1cn([C@H]2C[C@H](N=[N+]=[N-])[C@@H](CO)O2)c(=O)[nH]c1=O | NL4-3 |  | luciferase |  | 0.009434 µM
CC1(C)Oc2ccc3c(=O)cc(NCc4ccncc4)oc3c2[C@@H](OC(=O)C23CC[C@@](C)(C(=O)O2)C3(C)C)[C@H]1OC(=O)C12CC[C@](C)(C(=O)O1)C2(C)C | NL4-3 |  | luciferase / fluorescence |  | 21 µM
CNC(=O)c1cc2ncn(-c3ccc(C#N)cc3)c2cc1Oc1c(C)cc(CCC#N)cc1C | NL4-3 |  | luciferase |  | >220 µM
CC(C)C[C@H](NC(=O)c1ccc(NC(=O)[C@H](Cc2c[nH]c3ccccc23)NC(=O)CCC(=O)NCCOCNC(=O)CCC(=O)N[C@@H](Cc2c[nH]c3ccccc23)C(=O)Nc2ccc(C(=O)N[C@@H](CC(C)C)C(=O)O)cc2OCCc2c[nH]c3ccccc23)c(OCCc2c[nH]c3ccccc23)c1)C(=O)O | NL4-3 |  | luciferase / cell fusion |  | 20.5 µM
COC(=O)c1cccc(Cn2ccc3ccc(-c4ccc5ccn(Cc6cccc(C(=O)Oc7c(F)c(F)c(S(=O)(=O)[O-])c(F)c7F)c6)c5c4)cc32)c1.[Na+] | HXB2 |  | luciferase / cell fusion | pseudotyped | 0.06 µM
COc1c(Br)c2c(c3oc4ccccc4c(=O)c13)[C@@H](OC(=O)C13CCC(C)(C(=O)O1)C3(C)C)[C@@H](OC(=O)C13CCC(C)(C(=O)O1)C3(C)C)C(C)(C)O2 | NL4-3 |  | luciferase |  | >4 µM
CC(C)C[C@@H]1NC(=O)[C@@H](CC(C)C)NC(=O)[C@H](C(C)C)NC(=O)[C@H]2CSSC[C@@H](NC1=O)C(=O)N2 | SF162 |  | ELISA |  | 1.4 µM
C[C@]1(CO)O[C@@H](n2cnc3c(N)ncnc32)C[C@@H]1O |  | (delta)Env | luciferase |  | 0.069 µM
C[C@@H]1CCO[C@H]2Cn3cc(C(=O)NCc4ccc(F)cc4F)c(=O)c(O)c3C(=O)N12 | LAI | 3'-PPT mutations | luminescence |  | 0.00085 µM
Cc1cn([C@H]2C[C@H](N=[N+]=[N-])[C@@H](CO)O2)c(=O)[nH]c1=O | NL4-3 |  | luciferase |  | 0.00745 µM
c1ccc2c(NC3CCNCC3)nc(NCc3ccc(CNCCCNC4CCCCCC4)cc3)nc2c1 | IIIB |  | luciferase |  | 0.0587 µM
O=C(Nc1ccc(Cl)cc1)C(=O)NC1CC2(CCCCC2)NC2(CCCCC2)C1 | YTA |  | single cycle |  | 9 µM
Cc1ccc(N/N=C/c2ccc3cccc(O)c3n2)cc1 | VB59 |  | luciferase |  | 45.83 µM
NCCCCC(=O)NCCN1CCC(NC(=O)C(=O)Nc2ccc(Cl)cc2)CC12CCCCC2 | YTA |  | single cycle |  | 14 µM
O=c1oc2c(O)c(O)cc3c(=O)oc4c(O)c(O)cc1c4c23 | JR-CSF |  | luciferase | 24 h | 29.52 µM
Cc1ccc(C)c(N/N=C/c2ccc3cccc(O)c3n2)c1 | UG070 |  | luciferase |  | 17.5 µM
Cc1nnc(C(C)C)n1C1C[C@H]2CC[C@@H](C1)N2CC[C@H](NC(=O)C1CCC(F)(F)CC1)c1ccccc1 | BaL |  | luciferase |  | 0.001 µM
COc1ccc(S(=O)(=O)N(CC(C)C)C[C@@H](O)[C@H](Cc2ccccc2)NC(=O)Cn2cc(F)c(=O)[nH]c2=O)cc1 | NL4-3 |  | luciferase |  | 1.07 µM
CCN(CC)CCN1C(=O)c2cc(OC)c(OC)c3c2c1cc1cc(OC)c(OC)cc13 | NL4-3 |  | luciferase |  | 3.73 µM
Cc1cc(/C=C/C#N)cc(C)c1Nc1ccnc(Nc2ccc(C#N)cc2)n1 | LAI |  | luminescence |  | 0.00042 µM

Again, the opening 7 rows:

compound | strain | changes | method | setting | value
Oc1cccc2ccc(/C=N/Nc3ccc(Br)cc3)nc12 | VB59 |  | luciferase |  | >150 µM
O=C(Nc1ccc(Cl)cc1)C(=O)NC1CCN(Cc2ccccc2)C2(CCCCC2)C1 | YTA |  | single cycle |  | >30 µM
c1ccc2c(NC3CCNCC3)nc(NCc3ccc(CNCCCNC4CCCC4)cc3)nc2c1 | IIIB |  | luciferase |  | 0.0489 µM
Cc1cc(/C=C/C#N)cc(C)c1Oc1ccc(N)c(Nc2ccc(C#N)cc2)n1 | NL4-3 |  | luciferase |  | 0.00071 µM
COC(=O)c1cc(N)c(Nc2ccc(C#N)cc2)cc1Oc1c(C)cc(CCC#N)cc1C | NL4-3 |  | luciferase |  | 4.32 µM
CCC(=O)c1ccc(F)c([C@@H]2C[C@@H]2NC(=O)Nc2ccc(C#N)cn2)c1O | LAI | NNRTI-resistant (RT L100I) | β-galactosidase / luminescence |  | 0.00503 µM
Cc1[nH]c2ccc(-c3nnc(SCC(=O)N4CCCC4)o3)cc2c1C | NL4-3 |  | β-galactosidase / luminescence |  | 0.205 µM